# HIV-1 5' UTR: DMS reactivities by position

Reference: Ye et al. 2022, doi:10.1038/s41594-022-00746-2.

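Mutant RNA libraries with 1G, 2G or 3G starts, with or without cap, were folded at 37 °C for 30 min. High salt was 300 mM KCl and 5 mM MgCl2, low salt 40 mM KCl and 0.1 mM MgCl2; monomer and dimer were parted on a native gel. Each band was probed in the gel with DMS (170 mM, 15 min, 37 °C), with ethanol as control, and sequenced.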

RNA: 5' end of the HIV-1 NL4-3 genome, made in vitro. Positions 1-437 read:
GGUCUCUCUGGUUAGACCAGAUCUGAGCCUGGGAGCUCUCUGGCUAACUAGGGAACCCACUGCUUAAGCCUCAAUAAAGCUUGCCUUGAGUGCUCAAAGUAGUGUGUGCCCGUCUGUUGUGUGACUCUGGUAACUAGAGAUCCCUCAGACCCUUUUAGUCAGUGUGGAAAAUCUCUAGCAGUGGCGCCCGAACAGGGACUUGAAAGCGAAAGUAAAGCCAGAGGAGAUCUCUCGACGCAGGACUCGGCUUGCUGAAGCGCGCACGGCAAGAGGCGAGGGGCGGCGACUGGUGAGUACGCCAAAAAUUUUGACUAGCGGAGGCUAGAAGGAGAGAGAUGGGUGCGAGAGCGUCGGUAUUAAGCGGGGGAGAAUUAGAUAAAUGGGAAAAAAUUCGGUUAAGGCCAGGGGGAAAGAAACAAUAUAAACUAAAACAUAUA

Values are winsor-normalised DMS reactivities of A and C; higher means more reactive, usually unpaired.
One numbering serves 1G, 2G and 3G.
A position is written with its base.

A411: 3G capped high-salt monomer 0.95; 3G capped low-salt dimer 0.83; 1G uncapped high-salt dimer 0.78; 2G capped low-salt dimer 0.81.
A412: 3G capped high-salt monomer 0.53; 3G capped low-salt dimer 0.49; 1G uncapped high-salt dimer 0.51; 2G capped low-salt dimer 0.48.
A414: 3G capped high-salt monomer 0.48; 3G capped low-salt dimer 0.46; 1G uncapped high-salt dimer 0.51; 2G capped low-salt dimer 0.48.
A415: 3G capped high-salt monomer 0.21; 3G capped low-salt dimer 0.22; 1G uncapped high-salt dimer 0.25; 2G capped low-salt dimer 0.23.
A416: 3G capped high-salt monomer 0.45; 3G capped low-salt dimer 0.43; 1G uncapped high-salt dimer 0.45; 2G capped low-salt dimer 0.45.
C417: 3G capped high-salt monomer 0.86; 3G capped low-salt dimer 0.75; 1G uncapped high-salt dimer 0.85; 2G capped low-salt dimer 0.80.
A418: 3G capped high-salt monomer 0.68; 3G capped low-salt dimer 0.59; 1G uncapped high-salt dimer 0.63; 2G capped low-salt dimer 0.61.
A419: 3G capped high-salt monomer 0.50; 3G capped low-salt dimer 0.46; 1G uncapped high-salt dimer 0.48; 2G capped low-salt dimer 0.46.
A421: 3G capped high-salt monomer 0.38; 3G capped low-salt dimer 0.35; 1G uncapped high-salt dimer 0.37; 2G capped low-salt dimer 0.36.
A423: 3G capped high-salt monomer 0.42; 3G capped low-salt dimer 0.39; 1G uncapped high-salt dimer 0.46; 2G capped low-salt dimer 0.42.
A424: 3G capped high-salt monomer 0.34; 3G capped low-salt dimer 0.31; 1G uncapped high-salt dimer 0.39; 2G capped low-salt dimer 0.35.
A425: 3G capped high-salt monomer 0.52; 3G capped low-salt dimer 0.48; 1G uncapped high-salt dimer 0.55; 2G capped low-salt dimer 0.50.
C426: 3G capped high-salt monomer 0.79; 3G capped low-salt dimer 0.70; 1G uncapped high-salt dimer 0.79; 2G capped low-salt dimer 0.73.
A428: 3G capped high-salt monomer 0.12; 3G capped low-salt dimer 0.10; 1G uncapped high-salt dimer 0.10; 2G capped low-salt dimer 0.10.
A429: 3G capped high-salt monomer 0.76; 3G capped low-salt dimer 0.67; 1G uncapped high-salt dimer 0.73; 2G capped low-salt dimer 0.69.
A430: 3G capped high-salt monomer 0.55; 3G capped low-salt dimer 0.51; 1G uncapped high-salt dimer 0.57; 2G capped low-salt dimer 0.53.
A431: 3G capped high-salt monomer 0.61; 3G capped low-salt dimer 0.56; 1G uncapped high-salt dimer 0.64; 2G capped low-salt dimer 0.59.
C432: 3G capped high-salt monomer 0.96; 3G capped low-salt dimer 0.83; 1G uncapped high-salt dimer 0.90; 2G capped low-salt dimer 0.87.
A433: 3G capped high-salt monomer 0.79; 3G capped low-salt dimer 0.69; 1G uncapped high-salt dimer 0.72; 2G capped low-salt dimer 0.71.
A435: 3G capped high-salt monomer 0.52; 3G capped low-salt dimer 0.47; 1G uncapped high-salt dimer 0.49; 2G capped low-salt dimer 0.48.
A437: 3G capped high-salt monomer 0.02; 3G capped low-salt dimer 0.03; 1G uncapped high-salt dimer 0.04; 2G capped low-salt dimer 0.03.

The first 2 entries again:

{"position": "A411", "domain": "none", "3G capped high-salt monomer": 0.95, "3G capped low-salt dimer": 0.83, "1G uncapped high-salt dimer": 0.78, "2G capped low-salt dimer": 0.81}
{"position": "A412", "domain": "none", "3G capped high-salt monomer": 0.53, "3G capped low-salt dimer": 0.49, "1G uncapped high-salt dimer": 0.51, "2G capped low-salt dimer": 0.48}